Only a part is listed here, and it is no random draw. The source made the active and inactive calls. Calls come from the whole dose curve; as a rule, active = well fitted inhibition curve with a large enough effect; inconclusive = small, poorly fitted or top-dose-only effect; inactive = flat fitted curve, though single readings scatter.
Biological target: Tumor susceptibility gene 101 protein (Homo sapiens) (UniProt Q99816)
Test: qHTS Validation Assay for Inhibitors of HIV-1 Budding by Blocking the Interaction of PTAP/TSG101: Sytravon Library Screen; note: 0% is about no effect
Details: Fluorescence polarization, FITC-PTAP peptide/Tsg101, 20 min; at 115 µM (top of the series)
Excerpt: Stages of the HIV-1 replication cycle, specifically virus assembly and release, provide underexploited targets for the development of novel antiviral inhibitors. The late stages of HIV-1 replication are mediated by the Gag precursor protein, Pr55Gag. Expression of Pr55Gag is both necessary and sufficient for the production of virus-like particles from Gag-expressing cells. The Gag protein hijacks key host proteins involved in endocytic machinery of the host cell to promote endosomal processing and viral budding. The budding process requires a direct interaction between a […] (PTAP) motif in the p6 domain of Gag and the cellular endosomal sorting protein known as Tsg101. In this way, the Gag PTAP motif promotes the host cells to recruit viral particles to the plasma membrane where the new viral particles are released, effectively turning the host cells into viral factories. A fluorescence polarization assay has been developed to quantitatively measure the PTAP-Tsg101 interaction which can be used to screen for inhibitors of this interaction. This assay was run against the NCGC Sytravon Library collection. NIH Molecular Libraries Probe Production Network [MLPCN] NIH Chemical Genomics Center [NCGC] Grant: R03 MH087464-01A1 PI Name: Dr. Eric Freed, NCI
Two uL of the Tsg101 binding domain in buffer (10 mM HEPES pH 7.5; 0.15 M NaCl, 0.01% Tween 20; 3 mM EDTA;0.1 mM TCEP) was dispensed into Greiner black MB 1536-well plates (final concentration 10 uM). Then, 23 nL of compounds or DMSO were delivered to each well using a pin tool. Finally, 2 uL of a FITC-labeled peptide containing the PTAP motif (1) in the same buffer was dispensed (50 nM final concentration) and the binding was allowed to proceed for 20 min. at r.t. Fluorescent polarization was determined using FITC excitation and polarized emission filters on a Perkin Elmer Envision. Assay cut-off (positive/negative criteria): Actives defined by CRC class, <25 µM; Efficacy <60% inhibition. The total fluorescent intensity from S and P channels will be used to flag fluorescent compounds.

Amino acid sequences for entries named in this document (tags omitted).
UniProt Q99816, whole entry: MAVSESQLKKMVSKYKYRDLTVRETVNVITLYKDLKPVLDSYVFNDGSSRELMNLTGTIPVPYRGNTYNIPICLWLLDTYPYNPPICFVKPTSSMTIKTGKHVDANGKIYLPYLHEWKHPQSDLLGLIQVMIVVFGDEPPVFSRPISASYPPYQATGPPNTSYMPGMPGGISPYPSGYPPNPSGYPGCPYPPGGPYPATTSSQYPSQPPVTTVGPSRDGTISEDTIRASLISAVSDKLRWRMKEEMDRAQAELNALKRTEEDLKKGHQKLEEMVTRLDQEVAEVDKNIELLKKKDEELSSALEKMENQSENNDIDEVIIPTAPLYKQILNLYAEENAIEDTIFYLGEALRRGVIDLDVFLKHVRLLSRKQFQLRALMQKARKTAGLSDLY

Row | SMILES | activity change, negative = inhibition
1 | O=C(NCC1(N2CCOCC2)CCCCC1)c1ccccc1[N+](=O)[O-] | inactive: -3.1%
2 | O=C(NCC1(N2CCOCC2)CCCCC1)c1ccc([N+](=O)[O-])cc1 | inactive: 0.893%
3 | O=C(NCC1(N2CCOCC2)CCCCC1)c1ccccc1 | inactive: -5.54%
4 | COc1cc(C(=O)NCC2(N3CCOCC3)CCCCC2)cc(OC)c1OC | inactive: -0.449%
5 | CN(C)C1(CNC(=O)c2ccc(C(C)(C)C)cc2)CCCCC1 | inactive: -4.73%
6 | Cc1ccccc1C(=O)NCC1(N(C)C)CCCCC1 | inactive: -0.349%
7 | CC(C)(C)c1ccc(C(=O)NCC2(N3CCOCC3)CCCCC2)cc1 | inactive: -0.979%
8 | O=C(NCC1(N2CCOCC2)CCCCC1)c1ccc(Cl)cc1 | inactive: 1.36%
9 | COc1ccccc1C(=O)NCC1(N2CCOCC2)CCCCC1 | inactive: -0.0296%
10 | O=C(NCC1(N2CCOCC2)CCCCC1)c1ccccc1Br | inactive: -4.39%
11 | CCCCOc1ccccc1C(=O)NCC1(N2CCOCC2)CCCCC1 | inactive: -4.56%
12 | CCOc1ccc(C(=O)NCC2(N3CCOCC3)CCCCC2)cc1 | inactive: 3.77%
13 | CCCOc1cccc(C(=O)NCC2(N3CCOCC3)CCCCC2)c1 | inactive: -10.4%

Source: PubChem BioAssay AID1347069 (National Center for Advancing Translational Sciences (NCATS), 2019)
